Measured values from several laboratories, pooled; numbers as filed in NIAID ChemDB.

Shared fields: host cell toxicity; cell line: MT-4; read by: MTT; measure: CC50

CCn: concentration that lowers growth or viability of the cells by n%. Conditions beyond the fields shown may differ between rows.

CCc1c(Sc2cc(Cl)cc(Cl)c2)n(Cc2ccncc2)c(=O)[nH]c1=O ; result: 6.5 µg/mL
COc1cc(Cc2cnc(/N=C3\C(=O)N(CN4CCN(c5ccc(Cl)cc5)CC4)c4ccc(F)cc43)nc2N)cc(OC)c1OC ; result: 90.1 µg/mL
O=C1N(Cc2ccccc2)c2cccn2S(=O)(=O)N1Cc1cccc(F)c1 ; result: 288 µM
CC(C)c1c(C(=O)c2ccccc2)n(Cc2ccncc2)c(=O)[nH]c1=O ; result: 37.4 µg/mL
CCOC(=O)c1ccc(NC(=O)COc2nsnc2-c2cccc3ccccc23)cc1 ; result: 85 µM
CCc1c(Cc2cc(C)cc(C)c2)n(COC/C(C)=C/c2ccccc2)c(=O)[nH]c1=O ; result: 30 µM
CCN(CC)C(=O)c1cccn1S(=O)(=O)c1cc(Cl)ccc1[N+](=O)[O-] ; result: 13 µM
C=Cc1nc(S(C)(=O)=O)nc(N(C)C)c1I ; result: 22.9 µM
Nc1ccn([C@H]2CC[C@@H](CO)O2)c(=O)n1 ; result: 1860 µM
CC(C)c1c(C(=O)c2cc(F)cc(F)c2)n(Cc2cccnc2)c(=O)[nH]c1=O ; result: 29.81 µg/mL
CCc1c(C(C)c2c(F)cccc2F)nc(SC/C=C/c2ccc(C#N)cc2)[nH]c1=O ; result: 27.23 µM
CC(=O)OCc1cc(Cn2c(C(=O)c3cc(C)cc(Cl)c3)c(C(C)C)c(=O)[nH]c2=O)cc(C)n1 ; result: 28.81 µg/mL
O=C(COc1nsnc1-c1cccc2ccccc12)Nc1ccc(Cl)cc1Cl ; result: >116 µM
O=C1N(Cc2ccc(Cl)cc2Cl)c2cccn2S(=O)(=O)N1Cc1cccc(F)c1 ; result: 249 µM
COc1cc(Cc2cnc(/N=C3\C(=O)N(CN4CCN(c5cccc(Cl)c5)CC4)c4ccc(F)cc43)nc2N)cc(OC)c1OC ; result: 121.6 µg/mL
CC1(C)Cc2c(Br)c(Br)c(Br)c(O)c2O1 ; result: 60 µM
O=C1N(Cc2ccc(F)cc2)c2cccn2S(=O)(=O)N1Cc1ccccc1 ; result: 190 µM
N#Cc1ccc(Cn2cc(COc3nsnc3-c3cccc4ccccc34)nn2)cc1 ; result: 13 µM
C#CCNC(=O)CSc1cnc(Nc2ccc(C#N)cc2)nc1Oc1c(C)cc(C#N)cc1C ; result: 23.8 µM
C=Cc1cc(N(CC)CC)nc(SCc2ccc(OC)cc2)n1 ; result: 33 µM
COCCNC(=O)CSc1cnc(Nc2ccc(C#N)cc2)nc1Oc1c(C)cc(C#N)cc1C ; result: 26.4 µM
O=C(/C=C/c1ccc(Br)cc1)c1ccccc1O ; result: 34.44 µM
Cc1cc(C#N)cc(C)c1Oc1nc(Nc2ccc(C#N)cc2)ncc1SCC(N)=O ; result: >208.4 µM
O=C(/C=C/c1ccc(O)cc1)c1ccccc1O ; result: 178 µM
Cc1cc(C#N)cc(C)c1Oc1nc(Nc2ccc(C#N)cc2)ncc1SCC(=O)N1CCN(C(=O)OC(C)(C)C)CC1 ; result: >208.4 µM
Cc1ccc(S(=O)(=O)N2C(=O)CSC2c2ccc(Cl)cc2)cc1 ; result: >125 µM
CC(C)c1nc(CN(C)C(=O)N[C@H](C(=O)N[C@@H](Cc2ccccc2)C[C@H](O)[C@H](Cc2ccccc2)NC(=O)OCc2cncs2)C(C)C)cs1 ; result: >10 µg/mL
Cc1c(Cc2c(F)cccc2F)nc(SC/C=C/c2ccc([N+](=O)[O-])cc2)[nH]c1=O ; result: 11.65 µM
CN(Cc1ccccc1)C(=O)c1cccn1S(=O)(=O)c1cc(Cl)ccc1[N+](=O)[O-] ; result: 17 µM
COc1ccc(/C=C/C(=O)c2ccc(OC)cc2OC)cc1 ; result: >400 µM
Cc1cn([C@H]2C[C@H](N=[N+]=[N-])[C@@H](CO)O2)c(=O)[nH]c1=O ; result: >1 µg/mL
COc1cc(Cc2cnc(/N=C3\C(=O)N(CN(C)C)c4ccc(F)cc43)nc2N)cc(OC)c1OC ; result: 62.7 µg/mL
O=C1N(Cc2ccccc2)c2cccn2S(=O)(=O)N1Cc1ccccc1 ; result: 267 µM
C=Cc1cc(N(C)C)nc(S(C)(=O)=O)n1 ; result: 110 µM
C=CCOCn1c(CC2CCCc3ccccc32)c(CC)c(=O)[nH]c1=O ; result: 32 µM
Cc1cc(/C=C/C#N)cc(C)c1Oc1ccnc(Nc2ccc(CN3CCN(S(=O)(=O)N(C)C)CC3)cc2)n1 ; result: 3.07 µM
CC1(C)Cc2c(Br)c(Br)c(Br)c(OCCCN3CCN(c4ccccn4)CC3)c2O1 ; result: 47 µM
Cc1ccc(S(=O)(=O)N2C(=O)CSC2c2ccccc2O)cc1 ; result: >125 µM
O=C(OCC1CC1)c1cccn1S(=O)(=O)c1cc(Cl)ccc1[N+](=O)[O-] ; result: 96 µM
CCc1c(C(=O)c2cc(F)cc(F)c2)n(Cc2ccncc2)c(=O)[nH]c1=O ; result: 50.6 µg/mL
COC(=O)CCS(=O)(=O)c1cnc(Nc2ccc(C#N)cc2)nc1Oc1c(C)cc(C#N)cc1C ; result: 13.6 µM
CCCc1c(Cc2cc(C)cc(C)c2)n(COC/C=C/c2ccccc2)c(=O)[nH]c1=O ; result: 31 µM
COc1ccc(Cn2c(C(=O)c3cc(C)cc(C)c3)c(C(C)C)c(=O)[nH]c2=O)cc1 ; result: 7.46 µg/mL
Cc1cn([C@H]2C[C@H](N=[N+]=[N-])[C@@H](CO)O2)c(=O)[nH]c1=O ; result: >2 µM
CCOC(=O)c1ccn(S(=O)(=O)c2cc(Cl)ccc2N)c1 ; result: 44 µM
CCOC(=O)Sc1nsc(-c2ccccc2)c1C#N ; result: 108 µg/mL
COc1ccc(/C=C/C(=O)c2ccc(OC)cc2O)cc1 ; result: 192 µM
N#Cc1c(SCCCCSc2nsc(-c3ccccc3)c2C#N)nsc1-c1ccccc1 ; result: >125 µg/mL
COc1ccc(/C=C/CSc2nc(C(C)c3c(F)cccc3F)c(C)c(=O)[nH]2)cc1 ; result: >11.7 µM
CCOC(=O)c1nnsc1NCCCCNc1snnc1C(=O)OCC ; result: 105 µM
COc1cc(Cc2cnc(/N=C3\C(=O)N(CN4CCN(c5cc6c(cc5F)c(=O)c(C(=O)O)cn6C5CC5)CC4)c4ccc(F)cc43)nc2N)cc(OC)c1OC ; result: 141.6 µg/mL
O=C1N(Cc2ccccc2Cl)c2cccn2S(=O)(=O)N1Cc1ccccc1 ; result: >311 µM
Clc1ccc(Cn2cc(COc3nsnc3-c3cccc4ccccc34)nn2)cc1 ; result: >115 µM
CCCc1c(Cc2cc(C)cc(C)c2)n(COC2C=CCCC2)c(=O)[nH]c1=O ; result: 28 µM
CC(C)c1c(C(=O)c2cc(Cl)cc(Cl)c2)n(Cc2ccncc2)c(=O)[nH]c1=O ; result: 11.28 µg/mL
Cc1cc(C#N)cc(C)c1Oc1nc(Nc2ccc(C#N)cc2)ncc1SCC(=O)NCc1ccc(O)cc1 ; result: 23.2 µM
COc1cccc(N2CCN(CN3C(=O)/C(=N\c4ncc(Cc5cc(OC)c(OC)c(OC)c5)c(N)n4)c4cc(F)ccc43)CC2)c1 ; result: 81.6 µg/mL
Cc1ccc(S(=O)(=O)N2C(=O)CSC2c2ccccc2Cl)cc1 ; result: >125 µM
Cc1c(Cc2c(Cl)cccc2Cl)nc(SC/C=C/c2ccc(N(C)C)cc2)[nH]c1=O ; result: >54.35 µM
Cc1cc(C#N)cc(C)c1Oc1nc(Nc2ccc(C#N)cc2)ncc1SCC(=O)NCCN1CCOCC1 ; result: 21.8 µM
CCc1c(Cc2cc(C)cc(C)c2)n(COCC2CC=CCC2)c(=O)[nH]c1=O ; result: 24 µM
Cc1ccc(S(=O)(=O)N2C(=O)CSC2c2ccc(O)cc2)cc1 ; result: >125 µM
Cc1cc(C#N)cc(C)c1Oc1nc(Nc2ccc(C#N)cc2)ncc1SCC(=O)NC1CCN(C(=O)OC(C)(C)C)CC1 ; result: >208.4 µM

6 of the rows above, restated:

{"SMILES": "CCc1c(C(C)c2c(F)cccc2F)nc(SC/C=C/c2ccc(C#N)cc2)[nH]c1=O", "result": "27.23 µM"}
{"SMILES": "CCN(CC)C(=O)c1cccn1S(=O)(=O)c1cc(Cl)ccc1[N+](=O)[O-]", "result": "13 µM"}
{"SMILES": "O=C1N(Cc2ccccc2)c2cccn2S(=O)(=O)N1Cc1cccc(F)c1", "result": "288 µM"}
{"SMILES": "O=C1N(Cc2ccc(Cl)cc2Cl)c2cccn2S(=O)(=O)N1Cc1cccc(F)c1", "result": "249 µM"}
{"SMILES": "CC(C)c1c(C(=O)c2cc(Cl)cc(Cl)c2)n(Cc2ccncc2)c(=O)[nH]c1=O", "result": "11.28 µg/mL"}
{"SMILES": "N#Cc1ccc(Cn2cc(COc3nsnc3-c3cccc4ccccc34)nn2)cc1", "result": "13 µM"}